Pooled drug test results. Numbers come from NIAID ChemDB, via PubChem.

Shared fields: tests in culture; agent: Hepatitis C virus; cells: Huh7; measure: EC50

Neighbouring rows are from separate reports.

COC(=O)c1ccc2c(C3CCCCC3)c3n(c2c1)CC(N1CCOCC1)Cc1cccnc1-3 ; read by: replicon ; value: 0.01–1 µM
Cc1cc(-c2nnc(N[C@@H]3CCC[C@H](O)C3)o2)nc2c(C(C)(C)C)cc(NCC(F)(F)F)cc12 ; strain: GT 2a JFH ; value: 0.003 µM
OCc1nnc(-c2ccc(N3CCC(Oc4cc(F)ccc4Br)CC3)nn2)o1 ; strain: GT1b ; read by: PCR ; value: 0.00032 µM
CNC(=O)c1c(-c2ccc(F)cc2)oc2cc(N(CS(C)(=O)=O)c3nccs3)c(OC(C)C)cc12 ; read by: replicon ; value: <1 µM
O=S(=O)(N/N=C/c1ccccc1OS(=O)(=O)c1ccc(C(F)(F)F)cc1)c1cccc2ccccc12 ; read by: replicon ; value: 5–50 µM
C=C[C@@H]1C[C@]1(NC(=O)[C@@H]1C[C@@H](Oc2cc(-c3ccccc3)nc3cc(OC)ccc23)CN1C(=O)[C@@H](NC(=O)OC(C)(C)C)C(C)(C)C)C(=O)NS(=O)(=O)c1ccc(F)cc1 ; strain: 1b ; read by: replicon ; value: <0.5 µM
CS(=O)(=O)NC(=O)c1ccc2c(C3CCCCC3)c3n(c2c1)CCCc1ncccc1-3 ; read by: replicon ; value: 1–10 µM
Cc1ccccc1S(=O)(=O)Oc1ccccc1/C=N/NC(=O)Cc1ccccc1 ; read by: replicon ; value: >50 µM
C=C[C@@H]1C[C@]1(NC(=O)[C@@H]1C[C@@H](Oc2cc(-c3ccccc3)nc3cc(OC)ccc23)CN1C(=O)[C@@H](NC(=O)OC(C)(C)C)[C@@H](C)CC)C(=O)NS(=O)(=O)C1CC1 ; strain: 1b ; read by: replicon ; value: <0.5 µM
O=C(CC1C[C@@H]2CC[C@H]1C2)N/N=C/c1ccccc1OS(=O)(=O)c1ccc(C(F)(F)F)cc1 ; read by: replicon ; value: <5 µM
CN(C)S(=O)(=O)NC(=O)c1ccc2c(C3CCCCC3)c3n(c2c1)CCN(C(=O)OC(C)(C)C)c1ccccc1-3 ; read by: replicon ; value: 0.01–1 µM
C=C[C@@H]1C[C@]1(NC(=O)[C@@H]1C[C@@H](Oc2cc(-c3ccccc3)nc3cc(OC)ccc23)CN1C(=O)[C@H](CC(C)C)NC(=O)OC(C)(C)C)C(=O)NS(=O)(=O)C1CC1 ; strain: 1b ; read by: replicon ; value: <0.05 µM
CNC(=O)c1c(-c2ccc(F)cc2)oc2cc(N(C)S(C)(=O)=O)c(OCC(=O)OC(C)(C)C)cc12 ; read by: replicon ; value: <1 µM
O=C1Cn2c(c(C3CCCCC3)c3ccc(C(=O)NC4(C(=O)Nc5ccc(-c6cscn6)cc5)CCCC4)cc32)-c2ccccc2N1 ; read by: replicon ; value: 0.01–1 µM
C=C[C@@H]1C[C@]1(NC(=O)[C@@H]1C[C@@H](Oc2cc(-c3ccccc3)nc3cc(OC)ccc23)CN1C(=O)[C@@H](NC(=O)COc1ccc(F)cc1)C(C)(C)C)C(=O)NS(=O)(=O)C1CC1 ; strain: 1b ; read by: replicon ; value: <0.5 µM
OCc1nnc(-c2ccc(N3CCC(Oc4ccccc4C(F)(F)F)CC3)nn2)o1 ; strain: GT1b ; read by: PCR ; value: 0.0019 µM
COc1cccc(CC(=O)N/N=C/c2cc(C)ccc2OS(=O)(=O)c2ccc(C)cc2)c1 ; read by: replicon ; value: <5 µM
Cc1cc(-c2nnc(NC3CC(O)(C(F)F)C3)o2)nc2c(C(C)(C)C)cc(NCC(F)(F)F)cc12 ; strain: WT 1b ; read by: luciferase ; value: 0.00008 µM
COc1cccc(CC(=O)N/N=C/c2ccccc2OS(=O)(=O)c2ccc3nsnc3c2)c1 ; read by: replicon ; value: <5 µM
CNC(=O)c1c(-c2ccc(F)cc2)oc2cc(-c3ncc[nH]3)c(OC)cc12 ; read by: replicon ; value: <1 µM
C=C[C@@H]1C[C@]1(NC(=O)[C@@H]1C[C@@H](Oc2cc(-c3ccccc3)nc3cc(OC)ccc23)CN1C(=O)[C@@H](NC(=O)C(=O)OC)C(C)(C)C)C(=O)NS(=O)(=O)C1CC1 ; strain: 1b ; read by: replicon ; value: <0.5 µM
CNC(=O)c1c(-c2ccc(F)cc2)oc2cc(C3CCCN3C(C)=O)c(OC)cc12 ; read by: replicon ; value: <1 µM
O=C(O)/C=C/c1ccc(NC(=O)C2(NC(=O)c3ccc4c(C5CCCCC5)c5n(c4c3)CCCc3ncccc3-5)CCCC2)cc1 ; read by: replicon ; value: 0.01–1 µM
CNC(=O)c1c(-c2ccccc2)oc2ccc(OC)cc12 ; read by: replicon ; value: <10 µM
C=C[C@@H]1C[C@]1(NC(=O)[C@@H]1C[C@@H](Oc2cc(-c3ccccc3)nc3cc(OC)ccc23)CN1C(=O)[C@@H](NC(=O)OC(C)(C)C)C(C)(C)C)C(=O)NS(=O)(=O)c1ccccc1[N+](=O)[O-] ; strain: 1b ; read by: replicon ; value: <0.5 µM
CNC(=O)c1c(-c2ccc(F)cc2)oc2cc(N(C)S(C)(=O)=O)c(OCc3nnnn3C)cc12 ; read by: replicon ; value: <1 µM
CN1CCN(C(=O)C2Cc3ccccc3-c3c(C4CCCCC4)c4ccc(C(=O)NC5(CNc6ccc(/C=C/C(=O)O)cc6)CCCC5)cc4n3C2)CC1 ; read by: replicon ; value: 0.01–1 µM
CNC(=O)c1c(-c2ccc(F)cc2)oc2cc(-c3cc(C)on3)c(OC(C)C)cc12 ; read by: replicon ; value: <1 µM
CC(=O)N1CCn2c(c(C3CCCCC3)c3ccc(C(=O)NS(=O)(=O)N(C)C)cc32)-c2ccccc21 ; read by: replicon ; value: 0.01–1 µM
CNC(=O)c1c(-c2ccc(F)cc2)oc2cc(N3CCOCC3)c(OCC(C)=O)cc12 ; read by: replicon ; value: <10 µM
COc1ccc(-c2nc3ccc(NCc4ccc(Cl)c(C(F)(F)F)c4)cc3n(CCNC(C)=O)c2=O)cc1 ; strain: GT1b ; read by: PCR ; conditions: 50% human serum ; value: >40 µM
CCOC(=O)c1csc(COc2cc3c(C(=O)NC)c(-c4ccc(F)cc4)oc3cc2N(C)S(C)(=O)=O)n1 ; read by: replicon ; value: <1 µM
COc1cc(O[C@@H]2C[C@@H](C(=O)NC3(C(=O)NS(=O)(=O)C4CC4)CC34CCC4)N(C(=O)[C@@H](NC(=O)OC(C)(C)C)C(C)(C)C)C2)c2ccc(-c3ccccc3)cc2n1 ; strain: 1b ; read by: replicon ; value: <5 µM

Repeating the final 2 entries:

compound | strain | read by | conditions | value
CCOC(=O)c1csc(COc2cc3c(C(=O)NC)c(-c4ccc(F)cc4)oc3cc2N(C)S(C)(=O)=O)n1 |  | replicon |  | <1 µM
COc1cc(O[C@@H]2C[C@@H](C(=O)NC3(C(=O)NS(=O)(=O)C4CC4)CC34CCC4)N(C(=O)[C@@H](NC(=O)OC(C)(C)C)C(C)(C)C)C2)c2ccc(-c3ccccc3)cc2n1 | 1b | replicon |  | <5 µM

An empty or dashed field is not shown. Two numbers with a dash give a range or band. ECn is the concentration giving n% inhibition of infection, replication or growth.